Compound potency records, mixed from different reports. Data source: NIAID ChemDB in PubChem.

All rows: whole-cell or culture tests; agent: Hepatitis C virus; cells: Huh7; read-out: EC50

Two numbers with a dash give a range or band. Blank or dashed fields: not listed here. ECn is the concentration giving n% inhibition of infection, replication or growth. Neighbouring rows are from separate reports.

smiles	strain	method	value
COc1ccc(-c2cnc3nc(N)nc(N4CCN(C(=O)Nc5cccc(C(F)(F)F)c5)CC4)c3n2)cc1OC	HCV replicon	replicon	<0.3 µM
C=C[C@@H]1C[C@]1(NC(=O)[C@@H]1C[C@@H](Oc2nccc3cc(C(=O)C(F)(F)F)ccc23)CN1C(=O)[C@@H](NC(=O)OC(C)(C)C)C(C)(C)C)C(=O)NS(=O)(=O)C1CC1	BMS	replicon	0.1–1 µM
CNC(=O)c1c(-c2ccc(F)cc2)oc2cc(C(C)NC)c(OC)cc12	-	replicon	>30 µM
CCN(CC)C(=O)N1CCN(c2nc(N)nc3ncc(-c4ccc(OC)c(OC)c4)nc23)CC1	HCV replicon	replicon	<0.3 µM
COC(=O)c1c2c(c3ccccc3c1OC(C)=O)OC(C)(C)CC2	GT1b	PCR	2–4 µg/mL
COc1ccc(-c2cnc3nc(N)nc(N4CCN(C(=O)N(C)c5ccccc5)CC4)c3n2)cc1OC	HCV replicon	replicon	<0.3 µM
C=CC[C@](C)(NC(=O)[C@H]1C[C@@H](Oc2nccc3occc23)CN1C(=O)[C@@H](NC(=O)OC(C)(C)C)C(C)(C)C)C(=O)NS(=O)(=O)C1CC1	BMS	replicon	0.1–1 µM
CNC(=O)c1c(-c2ccc(F)cc2)oc2cc(N3CCOCC3)c(OCC(C)O)cc12	-	replicon	<10 µM
CC1(C)CCc2c(C(=O)OCc3ccc(Cl)cc3)c(O)c3ccccc3c2O1	GT1b	PCR	5 µg/mL
Cc1[nH]c(NC(=O)C(C)c2ccccc2)nc1-c1ccc(Cl)cc1	1a	luciferase	>10 µM
CCCCCC(=O)N1CCN(c2nc(N)nc3ncc(-c4ccc(OC)c(OC)c4)nc23)CC1	HCV replicon	replicon	<0.3 µM
CNC(=O)c1c(-c2ccc(F)cc2)oc2cc(N(CCOC(F)(F)F)S(C)(=O)=O)c(OC)cc12	-	replicon	<1 µM
Cc1[nH]c(NC(=O)C(C)c2ccccc2)nc1-c1ccc(C(=O)O)c(S(C)(=O)=O)c1	1b	luciferase	>10 µM
CCCCNC(=O)N1CCN(c2nc(N)nc3ncc(-c4ccc(OC)c(OC)c4)nc23)CC1	HCV replicon	replicon	<0.3 µM
CCC[C@H](NC(=O)[C@@H]1[C@H]2CCC[C@H]2CN1C(=O)[C@@H](NC(=O)[C@@H](NC(=O)c1cnccn1)C1CCCCC1)C(C)(C)C)C(=O)C(=O)NC1CC1	Mutant strain	replicon	8.1–12 µM
C=CC[C@](C)(NC(=O)[C@H]1C[C@@H](Oc2nc3ccccc3[nH]c2=O)CN1C(=O)[C@@H](NC(=O)OC(C)(C)C)C(C)(C)C)C(=O)NS(=O)(=O)C1CC1	BMS	replicon	10–100 µM
COC(=O)c1c(CC=C(C)C)c(O)c2ccccc2c1O	GT1b	PCR	5–10 µg/mL
COc1ccc(-c2nc(NC(=O)[C@@H](C)c3ccc(Cl)cc3)[nH]c2C)cc1S(=O)(=O)CCO	1a	luciferase	0.076 µM
CNC(=O)c1c(-c2ccc(F)cc2)oc2cc(N3CCOCC3)c(OCc3ccc(F)cc3)cc12	-	replicon	<1 µM
C=CC[C@](C)(NC(=O)[C@H]1C[C@@H](Oc2cc(C(F)(F)F)nc3ccc(F)cc23)CN1C(=O)[C@@H](NC(=O)OC(C)(C)C)C(C)(C)C)C(=O)NS(=O)(=O)C1CC1	BMS	replicon	0.1–1 µM
CNC(=O)c1c(-c2ccc(F)cc2)oc2cc(N3CCOCC3)c(OC(C)c3ccc(F)cc3)cc12	-	replicon	<1 µM
C=C[C@@H]1C[C@@]1(NC(=O)[C@H]1C[C@@H](Oc2ccnc3cc(F)ccc23)CN1C(=O)[C@@H](NC(=O)OC(C)(C)C)C(C)(C)C)C(=O)NS(=O)(=O)C1CC1	BMS	replicon	0.1–1 µM
CCOC(=O)c1ccc(NC(=O)COc2cc3c(C(=O)NC)c(-c4ccc(F)cc4)oc3cc2N(C)S(C)(=O)=O)cc1	-	replicon	<10 µM
COc1ccc(N2CCN(c3nc(N)nc4ncc(-c5ccc(OC)c(OC)c5)nc34)CC2)cc1	HCV replicon	replicon	0.3–1 µM
CC(=O)Oc1c(C(=O)Oc2ccccc2)c2c(c3ccccc13)OC(C)(C)CC2	GT1b	PCR	5 µg/mL
C=C[C@H]1C[C@@]1(NC(=O)[C@H]1C[C@@H](Oc2nccc3ccccc23)CN1C(=O)[C@@H](NC(=O)C(=O)CCOC)C(C)(C)C)C(=O)NS(=O)(=O)C1CC1	BMS	replicon	1–10 µM
CNC(=O)c1c(-c2ccc(F)cc2)oc2cc(N3CCOCC3)c(OCc3ccc(C(=O)OC)cc3)cc12	-	replicon	<10 µM
CC[C@H](C)Nc1nc(N)nc2ncc(-c3ccc(OC)c(OC)c3)nc12	HCV replicon	replicon	0.3–1 µM
C=C[C@@H]1C[C@@]1(NC(=O)[C@H]1C[C@@H](Oc2nnc(-n3cncn3)c3ccccc23)CN1C(=O)[C@@H](N)C(C)(C)C)C(=O)NS(=O)(=O)C1CC1	BMS	replicon	0.1–1 µM
CNC(=O)c1c(-c2ccc(N3CCOCC3)cc2)oc2ccc(OC)cc12	-	replicon	>30 µM
COc1ccc(-c2cnc3nc(N)nc(N4CCN(CCC#N)CC4)c3n2)cc1OC	HCV replicon	replicon	<0.3 µM
CNC(=O)c1c(-c2ccc(F)cc2)oc2cc(NCCN3CCOCC3)c(OC(C)C)cc12	-	replicon	<30 µM
C=CC[C@](C)(NC(=O)[C@H]1C[C@@H](Oc2nc(Br)c(OC)c3ccccc23)CN1C(=O)[C@@H](NC(=O)OC(C)(C)C)C(C)(C)C)C(=O)NS(=O)(=O)C1CC1	BMS	replicon	<0.1 µM

The last 2 rows once more:

smiles	strain	method	value
CNC(=O)c1c(-c2ccc(F)cc2)oc2cc(NCCN3CCOCC3)c(OC(C)C)cc12	-	replicon	<30 µM
C=CC[C@](C)(NC(=O)[C@H]1C[C@@H](Oc2nc(Br)c(OC)c3ccccc23)CN1C(=O)[C@@H](NC(=O)OC(C)(C)C)C(C)(C)C)C(=O)NS(=O)(=O)C1CC1	BMS	replicon	<0.1 µM